According to patent publication US6455587B1 (priority 2000, dated 2002):

Target: T1, recombinant HIV-1 protease (Human immunodeficiency virus type 1 group M subtype B, UniProt P04585)
T1 construct: recombinant HIV-1 protease (final concentration 2.18 nM) purchased from Bachem Bioscience; purchased Bachem Bioscience
Experiment: Enzymatic fluorometric (FRET) assay for determining the inhibition constant (Ki) against HIV protease
Format: biochemical
Settings: pH 4.7
Source text: An Enzymatic assay for determining the inhibition constant (Ki) of synthetic compounds targeting the HIV protease may be carried out as follows: This is a fluorometric assay based on the cleavage by protease of a substrate carrying a donor group (EDANS) and an acceptor group (DABCYL) on each side of the cleavage site, interacting together through fluorescence resonance energy transfer (FRET). Cleavage of the substrate by protease stops energy exchange between the two groups, resulting in a time-dependent increase in fluorescence intensity that is linearly related to the extent of substrate hydrolysis.
The enzymatic assay is done at 31° C. in white 96-well fluorescence microplates, in a total volume of 200 μL per well. The apparatus used for analysis is a FL600 fluorescence microplate reader (Biotek Instruments). […] Excitation of the fluorophore is done at 340 nm and emission at 485 nm is recorded continuously during the reaction, allowing determination of the enzyme's initial velocity (v0). At the end of the 4 min incubation, the potential inhibitor at a defined concentration in a volume of 4 μL is added to the reaction, and fluorescence readings are taken for another 4 min, allowing determination of enzyme velocity (vi) in the presence of the inhibitory compound. Several concentrations of the putative inhibitors are tested in the assay. […]

Nα-Cyclopropylmethyl-Nα-(4-methylbenzenesulfonyl)-Nε-(9-fluorenylmethoxycarbonyl)-L-lysine [Compound 43]
Ki: 9.3 µM
